Among the data in PubChem BioAssay AID1478 (National Center for Advancing Translational Sciences (NCATS), 2009) are max response, negative = inhibition values, retold here.

By UniProt entry, the sequences of proteins in these tests, tags left out. Residues count along the entry.
UniProt P25779, 123-467 limits assumed: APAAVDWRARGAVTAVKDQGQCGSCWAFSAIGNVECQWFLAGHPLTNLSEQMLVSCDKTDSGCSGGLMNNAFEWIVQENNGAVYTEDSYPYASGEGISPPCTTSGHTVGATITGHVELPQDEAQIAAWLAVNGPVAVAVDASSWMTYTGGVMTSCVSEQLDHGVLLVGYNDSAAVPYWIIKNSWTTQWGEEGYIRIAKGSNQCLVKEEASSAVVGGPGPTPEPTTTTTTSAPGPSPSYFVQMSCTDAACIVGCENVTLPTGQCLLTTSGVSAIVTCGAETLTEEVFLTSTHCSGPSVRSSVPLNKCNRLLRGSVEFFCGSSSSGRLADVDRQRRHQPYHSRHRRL

The structures appear in SMILES notation. Values joined by “and” are separate entries in the source; they are usually repeats but may differ in a detail not shown here. Identical values can stand only once. This is a selection; strong and weak results do not stand in their true shares. Some salts and complexes are drawn in separate pieces, as the source files them; their charges need not balance. Active and inactive are the calls of the source. Calls follow the shape of the dose curve; as a rule, active = well fitted inhibition curve with a large enough effect; inconclusive = small, poorly fitted or top-dose-only effect; inactive = flat fitted curve, though single readings scatter.

In the test the target is Cruzipain (Trypanosoma cruzi) (UniProt P25779). The experiment in a line: qHTS Assay for Promiscuous and Specific Inhibitors of Cruzain (with detergent).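 Also: plate controls were neutral wells for no effect and buffer without enzyme for full effect; nearly all actives have a fitted effect of over 40% in size.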 The conditions noted are these: purified cruzain, Z-FR-AMC fluorescence, 0.01% Triton. Summed up:
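Detergent-containing run (0.01% Triton X-100) in acetate buffer pH 5.5 with 5 mM DTT: enzyme at 1.5 nM final, 15 min compound preincubation at room temperature, then 2 uM Z-FR-AMC substrate. Activity taken as 60 s fluorescence increase at 360/450 nm.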
For orientation: Quantitative high-throughput screening tests each substance at several concentrations.
For the molecule `O=C(NC(Sc1ccncn1)C(Cl)(Cl)Cl)c1ccccc1` (configuration not stated), the max response, negative = inhibition is inactive: -6.08%.
Turning to `Cc1c2non([O-])c-2c(C)[n+](=O)[n+]1[O-]`, the max response, negative = inhibition is inactive: -0.371%.
Take `COc1ccc(OP(C)(=O)Nc2ccccn2)cc1` (configuration not stated): the max response, negative = inhibition is inactive: 4.66%.
As to `O=[N+]([O-])c1ccc(C[As](=O)(O)O)cc1`, the max response, negative = inhibition is inactive: 2.29%.
Take `CN1CCCC(OC(=O)C(c2ccccc2)c2ccccc2)C1` (configuration not stated): the max response, negative = inhibition is inactive: -0.858%.
With `CN(C)CCOC(=O)C(O)(c1ccccc1)C1CCCC1` (configuration not stated), the max response, negative = inhibition was inactive: 2.14%.
Regarding `O=[N+]([O-])[O-].[NH4+]`, the max response, negative = inhibition was inactive: 3.79%.
Consider `NC(=O)Nc1cc([As](=O)(O)O)cc(I)c1O`, for which the max response, negative = inhibition is inactive: 1.55%.
As to `O=C(OC1CN2CCC1CC2)C12CC3CC(CC(C3)C1)C2` (configuration not stated), the max response, negative = inhibition was inactive: 5.39%.
In the case of `Cc1c2c(nc3ccccc13)SC(C(Cl)Cl)C2` (configuration not stated), the max response, negative = inhibition is inactive: -9.32%.
`CCN(CC)C(=S)SC(NC=O)C(Cl)(Cl)Cl` (configuration not stated): the max response, negative = inhibition is inactive: -2.73%.
On to `COc1ccc(OP(C)(=O)Nc2cccc(F)c2)cc1` (configuration not stated), for which the max response, negative = inhibition is inactive: 7.52%.
As for `O=[N+]([O-])c1cc([N+](=O)[O-])c(-c2ccn[nH]2)s1`, the max response, negative = inhibition is inactive: -8.07%.
On to `[N-]=[N+]=NCC(N)=O`, for which the max response, negative = inhibition was inactive: -1.11%.
On to `COc1ccccc1OP(C)(=O)Nc1ccc(C)cc1` (configuration not stated), for which the max response, negative = inhibition was inactive: -3.23%.
As for `Cc1ccc(NP(C)(=O)Oc2ccccc2)c(C)c1` (configuration not stated), the max response, negative = inhibition is inactive: 2.6%.
With `CCOC(=O)c1ccc(NP(C)(=O)Oc2ccccc2)cc1` (configuration not stated), the max response, negative = inhibition is inactive: -3.52%.
`O=[As]c1ccc(S(=O)(=O)NCCO)cc1` (configuration not stated): the max response, negative = inhibition was inactive: -4.38%.
With `ClCCSc1nnc(-c2cccnc2)o1`, the max response, negative = inhibition was inactive: -1.48%.
Regarding `Cc1ccc2nc3c(c(C)c2c1)CC(C(Cl)Cl)S3` (configuration not stated), the max response, negative = inhibition is inactive: -9.98%.
Take `CC(C)(C)c1ccc(OP(C)(=O)Nc2ccc(SC(F)(F)F)cc2)cc1` (configuration not stated): the max response, negative = inhibition is inactive: -9.24%.
Consider `CP(=O)(Nc1ccccc1Br)Oc1ccccc1` (configuration not stated), for which the max response, negative = inhibition was inactive: -2.76%.
Take `CN(N=O)C(=N)N[N+](=O)[O-]`: the max response, negative = inhibition is inactive: 5.29%.
The value for `CP(=S)(Nn1cnnc1)Oc1ccccc1` (configuration not stated) was inactive: -0.65%; that for `Cc1cc(SC(NC(=O)c2ccccc2)C(Cl)(Cl)Cl)nc(C(C)C)n1` (configuration not stated) was inactive: -1.31%; that for `N1=C(c2nnc(-c3nn[nH]n3)nn2)NNN1` was inactive: -3.45%.
For `CP(=O)(Nc1ccccn1)Oc1ccc(Cl)cc1` (configuration not stated) the value was inactive: 3.57%.
For `CCC(C)N(CC(C)C)C(=S)SC(NC(C)=O)C(Cl)(Cl)Cl` (configuration not stated) the value was inactive: -14.4%; for `CCOC(=O)c1ccc(NP(C)(=O)Oc2ccc(OC)cc2)cc1` (configuration not stated), inactive: 0.585%.
`CCOP(C)(=S)SCC(=O)NC(C)C(=O)O` (configuration not stated): the max response, negative = inhibition is inactive: 6.98%.
Turning to `O=C(COc1ccccc1)OC1CN2CCC1CC2` (configuration not stated), the max response, negative = inhibition is inactive: 1.1%.
For the molecule `CP(=O)(NC(=O)Nc1ccccc1)Oc1ccccc1` (configuration not stated), the max response, negative = inhibition is inactive: 3.38%.
Regarding `O=C(O)[C@@H](O)c1ccc([As](=O)(O)O)cc1`, the max response, negative = inhibition is inactive: 2.41%.
For `Cc1cc(C)cc(OP(C)(=O)Nc2ccc(SC(F)(F)F)cc2)c1` (configuration not stated), the max response, negative = inhibition is inactive: -13.8%.
For `COP1(=S)c2c(C)nn(CCC#N)c2N=C(c2ccc(F)cc2)N1C` (configuration not stated), the max response, negative = inhibition is inactive: 4.18%.
Turning to `Cc1cccc(C)c1OP(C)(=O)Nc1ccc(SC(F)(F)F)cc1` (configuration not stated), the max response, negative = inhibition was inactive: -12.2%.
For `[Au].[Au].c1ccc([PH+](c2ccccc2)c2ccccc2)cc1.c1ccc([PH+](c2ccccc2)c2ccccc2)cc1.n1n[nH]c(-c2nnn[nH]2)n1`, the max response, negative = inhibition is inactive: 4.09%.
As to `Cc1nc2ccc3ccccc3c2s1.O=[N+]([O-])c1cc([N+](=O)[O-])c(O)c([N+](=O)[O-])c1`, the max response, negative = inhibition is inactive: -18.2%.
The value for `CN(C(=O)Cc1ccc(Cl)c(Cl)c1)[C@@H]1CCCC[C@H]1N1CCCC1` was inactive: -8.99%; that for `Clc1n[nH]nc1-c1nn[nH][15n]1` was inactive: 0.405%; that for `CN(CCCl)Cc1cc(Cl)c(NC2=NCCN2)c(Cl)c1` was inactive: -12.2%.
Regarding `O=P1(Nc2ccccn2)COc2ccccc2OC1`, the max response, negative = inhibition is inactive: -2.19%.
For `Cc1ccc(OCC(=O)OC2CN3CCC2CC3)cc1` (configuration not stated) the value was inactive: -1.64%.
As to `O=P1(Nc2ccc(Br)cn2)COc2ccccc2OC1`, the max response, negative = inhibition was inactive: 1.17%.
For the molecule `CP(=O)(Nc1ccc(SC(F)(F)F)cc1)Oc1ccccc1` (configuration not stated), the max response, negative = inhibition was inactive: -8.68%.
With `COc1ccccc1OP(C)(=O)Nc1c(C)cccc1C` (configuration not stated), the max response, negative = inhibition is inactive: 6.13%.
With `CN1CCCCC1COC(=O)C1(O)c2ccccc2CCc2ccccc21` (configuration not stated), the max response, negative = inhibition was inactive: 0.574%.
The value for `O=P1(Nc2ncccn2)COc2ccccc2OC1` was inactive: -4.34%.
Take `COc1cc(C2NCCC3(OCCO3)C2(C)C)cc(OC)c1OC.O=[N+]([O-])c1cc([N+](=O)[O-])c(O)c([N+](=O)[O-])c1` (configuration not stated): the max response, negative = inhibition is inactive: -1.82%.
For `Cc1nn(-c2ccccc2)c2c1P(=O)(N1CCOCC1)N(C)C(c1ccccc1)=N2` (configuration not stated) the value was inactive: 2.69%; for `O=[N+]([O-])c1ccc2c(c1)nnn2O`, inactive: -3.95%.
As for `CC1=NCCc2c1[nH]c1ccccc21.O=[N+]([O-])c1cc([N+](=O)[O-])c(O)c([N+](=O)[O-])c1`, the max response, negative = inhibition is inactive: -14.2%.
Take `O=[N+]([O-])OCC(CO[N+](=O)[O-])(CO[N+](=O)[O-])CO[N+](=O)[O-]`: the max response, negative = inhibition is inactive: 2.99%.
For `Cc1ccc([N+](=O)[O-])cc1[N+](=O)[O-]` the value was inactive: 2.29%; for `CCOP1(=S)c2c(C)nn(CCC#N)c2N=C(c2ccc(F)cc2)N1C` (configuration not stated), inactive: 4.07%.
On to `CN(C(=O)Cc1ccccc1)[C@@H]1CC[C@]2(CCCO2)C[C@H]1N1CCCC1`, for which the max response, negative = inhibition was inactive: -8.11%.
With `NC(=O)Nc1ccc([As](=O)(O)O)cc1`, the max response, negative = inhibition was inactive: 0.193% and inactive: 3%.
As for `O=[N+]([O-])CC(O)c1ccc([N+](=O)[O-])cc1` (configuration not stated), the max response, negative = inhibition is inactive: 6.52%.
Turning to `O=[As](O)(O)c1ccc([As](=O)(O)O)cc1`, the max response, negative = inhibition is inactive: 7.07%.
Take `CCOP1(=S)c2c(C)nn(CCC#N)c2N=C(c2ccccc2F)N1C` (configuration not stated): the max response, negative = inhibition was inactive: -1.39%.
Consider `O=[N+]([O-])c1cccc([N+](=O)[O-])c1`, for which the max response, negative = inhibition was inactive: 1.13%.
Regarding `O=P(Nc1nccs1)(c1ccccc1)c1nc2ccccc2s1` (configuration not stated), the max response, negative = inhibition is inactive: 0.261%.
Take `CCOP(=O)(Nc1cccc2ccccc12)OCC`: the max response, negative = inhibition was inactive: -1.84%.
`Cc1ccc(C)c(NP(C)(=O)Oc2ccccc2)c1` (configuration not stated): the max response, negative = inhibition is inactive: -1.18%.
The value for `Cc1cc(C)cc(OP(C)(=O)Nc2ccccn2)c1` (configuration not stated) was inactive: 7.71%; that for `NS(=O)(=O)Cc1ccc([As](=O)(O)O)cc1` was inactive: 6.99%; that for `O=C(CC(=O)c1ccccc1)O[C@H]1CN2CCC1CC2` was inactive: 0.823%.
As for `Cc1ccc(NCCc2c([N+](=O)[O-])cc([N+](=O)[O-])cc2[N+](=O)[O-])cc1`, the max response, negative = inhibition was inactive: -5.3%.
Turning to `CCOC(=O)c1ccc(NP(C)(=O)Oc2cc(C)cc(C)c2)cc1` (configuration not stated), the max response, negative = inhibition was inactive: -5.66%.
For `Cc1cccc(OCC(=O)OC2CN3CCC2CC3)c1` (configuration not stated) the value was inactive: 6.99%.
The value for `Cc1cc(C)cc(OP(C)(=O)Nc2ccc(C)cc2C)c1` (configuration not stated) was inactive: 4.54%.
`CN(C(=O)Cc1ccc(Cl)c(Cl)c1)[C@@H]1CC[C@]2(CCCO2)C[C@H]1N1CCCC1`: the max response, negative = inhibition was inactive: 5.57%.
